Measurements reported in the supplement of paper PMC9931576.
Human monoclonal antibodies against the spike receptor-binding domain (heavy:light variable regions). IC50 against pseudoviruses bearing the spike of naturally observed variants; lower = stronger; >10 µg/ml means not reached at the top dose. No active / inactive call. The stated detection limit is 0.0005 µg/ml; values near or below 0.001 µg/ml lie at the floor of the assay.

B1: BD56-1599 (protein)
chain 1: QVQLVESGGGVVQPGRSLRLSCAASGFTFRTYGMHWVRQAPGKGLEWVASIWYDGSNEDYADSAKGRFTISRDNSNHTLFLQLNSLRVEDTAVYYCAKDPNPYGSGWFSFHFDYWGQGSLVTVSS
chain 2: QSVLTQPPSVSGAPGQRVTISCTGSSSNIGASYDVHWYQQLPGTAPKLLIYDNNNRPSGVPDRFSGSKSDTSASLAITGLQAEDEADYYCQSYDTSLGRVFGGGTKLTVL
B2: BD56-1593 (protein)
chain 1: EVQLVQSGAEVKKPGESLKISCKTSGYSFISYWIAWVRQMPGKGLEWMGFIYPGDSDARYSPSFQGQVTISAAKSISTAYLQWTSLKASDTAIYYCARQPHSYSSVDYWGQGTLVTVSS
chain 2: QSVLTQPPSASGTPGLRVTISCSGSSSNIGGNAVNWYHQFPGTAPRLLIYNNNERPSGVPDRFSGSKSGTSASLAISGLQSGDEADYYCAAWDDSLNGVVFGGGTKLTVL
B3: BD56-1578 (protein)
chain 1: EVQLVQSGAEVKKPGESLKISCKGSGYSFISYWSGWVRQTPGKGLEWMGIIYPGDSDTKYSPSFQGQVIISADKSISTSYLQWSSLKASDTAMYYCVRRDGGSYSGYDDYWGQGTLVTVSS
chain 2: QSVLTQPPSASGTPGQRVTISCSGGSSNIGSNPVNWYQQLPGAAPKLLIYNNNQRPSGFPDRFSGSKSGTSASLAISGLQSEDEAEYYCAAWDDSLNGYVFATGTKVTVL
B4: COV2-2037 (protein)
chain 1: EVQLVESGGGLVQPGESLRLSCAASGITVSSNYMSWVRQAPGKGLEWVSVIYSGGSTFYADSVKGRFIISRHNSKNTLYLQMNSLRAEDTAVYYCARDLNEHGLDVWGQGTTVSVSS
chain 2: DIQMTQSPSSVSASVGDRVTITCRASQGISSWLAWYQQKPGKAPKLLIYAASSLQSGVPSRFSGSGSGTDFTLTISSLQPEDFATYYCQQTNSFPTFGQGTRLEIR
B5: BD56-1592 (protein)
chain 1: QVQLVESGGGVVQPGRSLRLSCVASGFTFKNYGMHWVRQAPGTGLEWVAVISYDGEDKYYADSVMGRFTISRDNSKNMLFLQMYRLRPEDTAVYYCAKAPYTHAYYYYFMDVWGKGATVTVSS
chain 2: NFMLTQPHSVSESPGKTVTIPCTGNSDSIASNHVQWYQQRPGSAPTTVIYEDNERPSGVPDRFSGSIDTSSKTASLTISGLKTEDEADYFCQSYDTNNHVVFGGGTKLTVL
B6: BD56-1572 (protein)
chain 1: EVQLVQSGAEVKKPGESLKISCKGSGYSFSTYWIAWVRQMPGKGLEWMGIIYPYDSDTRYSPSFQGQVTISADKSISTAYLQWTSLKASDTAMYYCARQDSGWALDYWGQGTLVTVSS
chain 2: SSELTQDPAVSVALGQTVRITCQGDSLRSYYASWYQQKAGQAPVLVIYGKTNRPSGIPDRFSGSGSGNTASLTITGAQAEDEADYYCNSRDSSGNHWVFGGGTKLTVL

Tests used:
Test in all cases: pseudovirus neutralization IC50; higher = weaker neutralization
[1] = molecular target: SARS-CoV-2 Omicron BA.1 spike pseudovirus
Method: (§1)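 Single-round VSV luciferase pseudovirus mixed with antibody dilutions for 1 h and put on Huh-7 cells for about a day; IC50 from the dose curve.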

[2] = molecular target: SARS-CoV-2 Omicron BA.2 spike pseudovirus
Method: as §1

[3] = molecular target: SARS-CoV-2 Omicron BA.2.75 spike pseudovirus
Method: as §1

[4] = molecular target: SARS-CoV-2 Omicron BA.5 spike pseudovirus
Method: as §1

[5] = molecular target: SARS-CoV-2 Omicron BQ.1.1 spike pseudovirus
Method: as §1

[6] = molecular target: SARS-CoV-2 Omicron XBB spike pseudovirus
Method: as §1

[7] = molecular target: SARS-CoV-2 early D614G spike pseudovirus
Method: as §1

Binder | pseudovirus neutralization IC50 [1] | pseudovirus neutralization IC50 [2] | pseudovirus neutralization IC50 [3] | pseudovirus neutralization IC50 [4] | pseudovirus neutralization IC50 [5] | pseudovirus neutralization IC50 [6] | pseudovirus neutralization IC50 [7]
B1 | > 10 µg/mL | > 10 µg/mL | > 10 µg/mL | > 10 µg/mL | > 10 µg/mL | > 10 µg/mL | > 10 µg/mL
B2 | 2.99 µg/mL | 2.03 µg/mL | 0.351 µg/mL | 0.568 µg/mL | 0.868 µg/mL | 1.42 µg/mL | 2.04 µg/mL
B3 | 1.31 µg/mL | 1.16 µg/mL | 0.481 µg/mL | 0.591 µg/mL | 0.878 µg/mL | 0.889 µg/mL | 1.94 µg/mL
B4 | > 10 µg/mL | > 10 µg/mL | > 10 µg/mL | > 10 µg/mL | > 10 µg/mL | > 10 µg/mL | 0.0167 µg/mL
B5 | > 10 µg/mL | > 10 µg/mL | > 10 µg/mL | > 10 µg/mL | > 10 µg/mL | > 10 µg/mL | 3.84 µg/mL
B6 | 2.58 µg/mL | 1.26 µg/mL | 0.497 µg/mL | 0.614 µg/mL | 1.06 µg/mL | 2.08 µg/mL | 2.2 µg/mL
